Anti-infective test results gathered from many reports (values: NIAID ChemDB through PubChem).

All rows: growth or infection tests; agent: HIV-1; endpoint: EC50

Rows are shuffled and stem from different studies.

smiles	read by	mutations	conditions	strain or isolate	cells	value
CC(C)CN(C[C@@H](O)[C@H](Cc1ccccc1)NC(=O)O[C@H]1CO[C@H]2OCC[C@H]21)S(=O)(=O)c1ccc(N)c(NCCNC(=O)OC(C)(C)C)c1	GFP	-	-	IIIB WT	MT-4	0.0145 µM
CC(C)C1=C2[C@H]3CC[C@@H]4[C@@]5(C)CC[C@H](OC(=O)[C@H]6C[C@@H](C(=O)O)C6(C)C)C(C)(C)[C@@H]5CC[C@@]4(C)[C@]3(C)CC[C@@]2(CCNCC(C)(NC(=O)c2ccc(Cl)cc2)C(C)O)CC1=O	p24 / ELISA	-	-	92HT599	MT-2	<1 µM
CC1=C(/C=C/C(C)=C/C=C/C(C)=C/C(=O)O)C(C)(C)CCC1	MTT / p24	-	10 d, chronic infection	IIIB	ACH-2 (chronically infected) + ACH2	>0.1 µM
Oc1cc(O)c2c(c1)O[C@@]1(c3ccc(O)c(O)c3)Oc3cc(O)c4c(c3[C@@H]2[C@H]1O)OC(c1ccc(O)c(O)c1)C(O)C4c1c(O)cc(O)c2c1OC(c1ccc(O)c(O)c1)C(O)C2c1c(O)cc(O)c2c1OC(c1ccc(O)c(O)c1)C(O)C2c1c(O)cc(O)c2c1OC(c1ccc(O)c(O)c1)C(O)C2	PCR	-	-	X4	PBMC	22.5 µg/mL
CC(C)CN(C[C@@H](O)[C@H](Cc1ccccc1)NC(=O)O[C@H]1CO[C@H]2OCC[C@H]21)S(=O)(=O)c1ccc(N)c(NCc2ccncc2)c1	GFP	-	-	IIIB WT	MT-4	0.275 µM
Cc1cc(/C=C/C#N)cc(C)c1Oc1ccnc(S(=O)(=O)CC(=O)NCCc2ccc(Br)cc2)n1	MTT	-	-	IIIB	MT-4	0.794 µM
COC(=O)c1cc(NC(=O)Nc2cccc3c(C(=O)C(=O)N4CCC(=C(C#N)c5ccccc5)CC4)c[nH]c23)cc(C(=O)OC)c1	luciferase / reporter gene	-	-	-	HeLa	<1 µM
CC(C)CN(C[C@@H](O)[C@H](Cc1ccccc1)NC(=O)O[C@H]1CO[C@H]2OCC[C@H]21)S(=O)(=O)c1ccc(N)c(NCCc2cncn2CC2CCCCC2)c1	GFP	-	-	IIIB WT	MT-4	0.0813 µM
CC#C[C@]1(O)CC[C@H]2[C@@H]3CCC4=CC(=O)CCC4=C3[C@@H](c3ccc(N(C)C)cc3)C[C@@]21C	p24 / GFP	-	-	NL4-3	CEMx174	0.5 µM
Cc1cc(-c2ccc(C#N)cc2)cc(C)c1Oc1ccnc(S(=O)(=O)CC(=O)Nc2ccc(Cl)cc2)n1	MTT	Y181C	-	IIIB	MT-4	0.275 µM
C[C@H]1[C@H](O)[C@@H](C)/C=C/C=C/C=C/C=C/C=C/C=C/C=C/[C@H](O[C@@H]2O[C@H](C)[C@@H](O)[C@H](N)[C@@H]2O)C[C@@H]2O[C@](O)(C[C@@H](O)C[C@@H](O)CC[C@H](O)[C@@H](O)C[C@@H](O)CC(=O)O[C@H]1C)C[C@H](O)[C@H]2C(=O)O	p24 / RT activity	-	-	MDR1385 Primary isolate X4 (SI)	PBMC	1.6 µM
CC(C)C1=C2[C@H]3CC[C@@H]4[C@@]5(C)CC[C@H](OC(=O)[C@H]6C[C@@H](C(=O)O)C6(C)C)C(C)(C)[C@@H]5CC[C@@]4(C)[C@]3(C)CC[C@@]2([C@@H](O)CNC(=O)C2(NC(=O)c3ccc(Cl)cc3)CCC2)CC1=O	p24 / ELISA	-	-	92HT599	MT-2	<1 µM
CS[C@@]12CC3=CC=C[C@H](O)[C@H]3N1C(=O)[C@]13C[C@H]4C(=O)[C@H](C[C@H](O)[C@H]4N1C2=O)S3	luciferase / luminescence	-	-	NL4-3	293T	10.7 µM
COC(=O)C(OCC1OC(n2cc(C)c(=O)[nH]c2=O)CC1N=[N+]=[N-])P(=O)(O)OP(=O)(O)OP(=O)(O)O	cytopathic effect / syncytia	-	-	IIIB	CEM	>100 µg/mL
O=c1[nH]cnc2c1ncn2[C@H]1C[C@@H](OCP(=O)(O)O)CO1	MTT / absorbance	-	-	IIIB	MT-4	>395 µM
CC(C)C1=C2[C@H]3CC[C@@H]4[C@@]5(C)CC[C@H](OC(=O)[C@H]6C[C@@H](C(=O)O)C6(C)C)C(C)(C)[C@@H]5CC[C@@]4(C)[C@]3(C)CC[C@@]2([C@@H](O)CNCC2(NC(=O)c3ccc(Cl)cc3)CNC2)CC1=O	p24 / ELISA	-	-	92HT599	MT-2	<1 µM
Cc1cc(=O)oc2c3c(ccc12)S[C@H](C)[C@@H](OC(=O)[C@@]12CC[C@@](C)(C(=O)O1)C2(C)C)[C@H]3OC(=O)[C@@]12CC[C@@](C)(C(=O)O1)C2(C)C	p24 / antigen	-	-	IIIB	H9	>100 µg/mL
Cc1cc(-c2ccc(C#N)cc2)cc(C)c1Oc1ccnc(S(=O)(=O)C(C)C(=O)Nc2ccc(C#N)cc2)n1	MTT	Y188L	-	IIIB	MT-4	0.726 µM
CC(C)C1=C2[C@H]3CC[C@@H]4[C@@]5(C)CC[C@H](OC(=O)[C@H]6C[C@@H](C(=O)O)C6(C)C)C(C)(C)[C@@H]5CC[C@@]4(C)[C@]3(C)CC[C@@]2([C@@H](O)CNC(=O)[C@@H]2CCCN2)CC1=O	p24 / ELISA	-	-	92HT599	MT-2	<1 µM
COC(=O)CCC(=O)Nc1cccc2c(C(=O)C(=O)N3CCN(C(=O)c4ccccc4)C[C@H]3C)c[nH]c12	luciferase / reporter gene	-	-	-	HeLa	<1 µM
Cc1ccc(CNCC[C@@]23CC[C@]4(C)[C@H](CC[C@@H]5[C@@]6(C)CC[C@H](OC(=O)[C@H]7C[C@@H](C(=O)O)C7(C)C)C(C)(C)[C@@H]6CC[C@]54C)C2=C(C(C)C)C(=O)C3)cc1	p24 / ELISA	-	-	92HT599	MT-2	<1 µM
CCCOC(=O)[C@H](Cc1ccccc1)NP(=O)(CO[C@H]1CO[C@@H](n2cc(C)c(N)nc2=O)C1)N[C@@H](Cc1ccccc1)C(=O)OCCC	MTT / absorbance	-	-	IIIB	MT-4	≥23.4 µM
CS[C@@]1(Cc2ccccc2)NC(=O)[C@@](O)(Cc2ccccc2)NC1=O	luciferase / luminescence	-	-	NL4-3	293T	5.9 µM
C[C@@H]1CN(C(=O)c2ccccc2)CCN1C(=O)C(=O)c1c[nH]c2c(NC(=O)NCCCCCCNC(=O)NCCOCCOCCN)cccc12	luciferase / reporter gene	-	-	-	HeLa	<1 µM
Cc1cc(-c2ccc(C#N)cc2)cc(C)c1Oc1ccnc(S(=O)(=O)CC(=O)Nc2ccc(F)cc2)n1	MTT	Y188L	-	IIIB	MT-4	1.981 µM
COC(=O)C(OCC1OC(n2cc(C)c(=O)[nH]c2=O)CC1N=[N+]=[N-])P(=O)(O)OP(=O)(O)O	cytopathic effect / syncytia	-	-	IIIB	CEM	56 µg/mL
CC(C)CN(C[C@@H](O)[C@H](Cc1ccccc1)NC(=O)O[C@H]1CO[C@H]2OCC[C@H]21)S(=O)(=O)c1ccc(N)c(NCc2cccnc2)c1	GFP	-	-	IIIB WT	MT-4	0.0832 µM
CC(=O)c1ccc(C)cc1NC(C(N)=O)c1c(Cl)cccc1Cl	flow cytometry	-	-	IIIB	CEM	0.004 µM
CS[C@@]12C[C@@H]3C(=O)C=C[C@H](O)[C@H]3N1C(=O)[C@]1(SC)CC3=CC=C[C@H](O)[C@H]3N1C2=O	luciferase / luminescence	-	-	NL4-3	293T	3.2 µM
CC(C)C1=C2[C@H]3CC[C@@H]4[C@@]5(C)CC[C@H](OC(=O)[C@H]6C[C@@H](C(=O)O)C6(C)C)C(C)(C)[C@@H]5CC[C@@]4(C)[C@]3(C)CC[C@@]2([C@@H](O)CNCC(C)(CO)NC(=O)c2ccc(Cl)cc2)CC1=O	p24 / ELISA	-	-	92HT599	MT-2	<1 µM
CC(=O)CC(c1ccccc1)c1c(O)c2ccccc2oc1=O	p24 / RT activity	-	-	-	ACH-2(HIV-1(IIIB)) + ACH2	0.001 µM
CC(C)C1=C2[C@H]3CC[C@@H]4[C@@]5(C)CC[C@H](OC(=O)CC(C)(C)C(=O)O)C(C)(C)[C@@H]5CC[C@@]4(C)[C@]3(C)CC[C@@]2([C@@H](O)CN(CCN(C)C)Cc2ccc(Cl)cc2)CC1=O	syncytia / visual reading / single cycle	-	-	NL4-3	CEM-SS + MAGIC-5A	0.0000028 µM
CCCOC(=O)[C@H](Cc1ccccc1)NP(=O)(CO[C@H]1CO[C@@H](n2cnc3c(=O)[nH]cnc32)C1)N[C@@H](Cc1ccccc1)C(=O)OCCC	MTT / absorbance	-	-	IIIB	MT-4	>95.1 µM
CS[C@@]12C[C@H]3C(=O)CC[C@H](O)[C@H]3N1C(=O)[C@]1(SC)CC3=CC=C[C@H](O)[C@H]3N1C2=O	luciferase / luminescence	-	-	NL4-3	293T	8.7 µM
Cc1cn(C2CC(N=[N+]=[N-])C(COC(C(=O)O)P(=O)(O)O)O2)c(=O)[nH]c1=O	cytopathic effect / syncytia	-	-	IIIB	CEM	5.6 µg/mL
CC(C)CN(C[C@@H](O)[C@H](Cc1ccccc1)NC(=O)O[C@H]1CO[C@H]2OCC[C@H]21)S(=O)(=O)c1ccc(N)c(NCCCN2CCCC2=O)c1	GFP	-	-	IIIB WT	MT-4	0.135 µM
Cc1cc(C#N)cc(C)c1Oc1ccnc(S(=O)(=O)CC(=O)Nc2ccc(C#N)cc2)n1	RT activity / fluorescence	F227L V106A	-	IIIB	MT-4	0.127 µM
CC(C)CN(C[C@@H](O)[C@H](Cc1ccccc1)NC(=O)O[C@H]1CO[C@H]2OCC[C@H]21)S(=O)(=O)c1ccc(N)c(NCCCN2CCCC2)c1	GFP	-	-	IIIB WT	MT-4	0.269 µM
CO[C@@H]1[C@@H](OC(=O)c2ccc(C)[nH]2)[C@@H](O)C(Oc2ccc3c(O)c(NC(=O)c4c[nH]c(C(=O)Nc5c(O)c6ccc(OC7OC(C)(C)[C@H](OC)[C@@H](OC(=O)c8ccc(C)[nH]8)[C@H]7O)c(C)c6oc5=O)c4C)c(=O)oc3c2C)OC1(C)C	flow cytometry / single cycle	(delta)Env	-	LAI	SupT1	1.3 µM
Cc1cc(/C=C/C#N)cc(C)c1Oc1ccnc(S(=O)(=O)CC(=O)Nc2ccc(Cl)cc2)n1	MTT	F227L V106A	-	IIIB	MT-4	0.76 µM

An empty or dashed field is not shown. ECn: concentration that inhibits the pathogen or its effect by n%.